# Construct, isoform or probe ends are uncertain for at least one entry.
# Molecular target: HapRV2G (functional wild-type HapR) (UniProt Q4F6W7)
# Assay: EMSA
# Details: recombinant protein; residues 1-203; protein details: N-terminal 6xHis (pET15b); label: 32P end label; probe letters rebuilt from the primers and the genome
row,Sequence,binding result
1,GAGTGAAGGCCAAAGTCATTGGGTCTATTTTAAAGCGATTGATAATGCCCCAGCCGCCAGCTTTGCTTCGGAAAATATTCGACTTTCTTGTAAACAAGCAATAAATCAAGGGCTGATCAAAGTTCACTCTTCTTATAAGAATGAGGACAACATCAAAAAACTCTTAAAAGATGGATAAATGCTGCCCAGTCGGCATAAACACTGGGTGACGCCAGCAAAATATTTGTTATTATCGACAAATCAATAAATAGGATCAGGATTGATCCTCAACTATCCAGTTTGTTGTACATGGGCGTTCTAGAACAAGATATCCAAGCAGAGCTTCAAAAACTGAAATCTCAGTTAGAACAAGTACGTTTGACACAAAGGGATACTTCGTTCAAATTTAACCGAGAGCAGCAAGTTCTTAAACGAATGGTCACTTCCTTGGCTACGACTTGCCGCGGCAGTAGCTCTCGACTAAACCA (double strand) [vc0900 promoter],binds
2,GATCGGGATCCGATAACGTGTGGTAATGACATGTCTTCAATCCAAAAATTAAGTCAACATAAACCTCTATCTAAACGGTTGTTGTGCTTCTAATGGCACTCATATCAACGCATTTAAATACCTGCAGCGCAAAATTCGGCTGCTTATGTCACCTTATCAAGCCGGTTATCACCTAGAGTGGCGTATGTCTTTGCATACTTTAACTGTGAGATTGCTTTACATTACTTATCACAGAGGGAACGTAGTATATCTAAATAATAAGCATAAAGTGGAATACAAATATGCTGATTAGTCGAAAAACTGACATTATTCTCAATAATGAAAAAATGTAAAACAAAAGGCCACAAAGTTGTGACCTTTTAGTTTTTTATACTGACATTTAGCGATTTGTTAACCAGTATTGCGCATTCGAATTCCGATC (double strand) [aphA promoter],binds
3,GGAATTCGACTCATGGGGACTTGCTGCTAACGTTGGCTTTGATTATATGCTCAATGATAGCTGGTTCCTCAACGCTTCTGTGTGGTATGCCAATATTGAAACAACGGCAACCTACAAAGCAGGTGCAGATGCCAAATCCACGGATGTTGAAATCAATCCTTGGGTATTTATGATCGCGGGTGGTTATAAGTTCTAACGCCCTATTTCGAAAATAAAGCCGCGAAATCGCGGCTTTATTTTTTTGTGGCCTCGATTTCATCATTTTTAGCGGTAGTGATTGTTTTCTAACGTAATCTCCATTCAGAGCCTGAGACGTACGTCAATCCCCTGTTGATACTGATAAATAGGTGTCAAATTTTAAAGGCGCAAACCTATCAGTAAGATTCTATCTTTATGATTTTCTTTTGTTTATTTCTGGCTTTCTTATCGAGTATTCCTACTTACTGAGTAGTTTGTGACACGTAAAGTGCACACTTTTTATTAACATTTTTTTAACTTTGGTTTGGTGTTTTTCATTGACTTGTACCACTTTGATTGAACGCGGTATTTCGCGTGCAATCGGCGTTGATGGGAGCGGTTCAACGCTTAATACATTCAACATCTCTAGGATTGAGAAATGAAAATGATACAACGTCCTCTGAATTGGTTAGTTCTGGCCGGAGCGGCAACTGAGAATTCC (double strand) [hapA promoter],binds

# From paper PMC3796514
